Results of unrelated studies side by side (data: NIAID ChemDB).

All rows: tests in culture; agent: Aspergillus fumigatus; measure: MIC

An empty or dashed field is not shown. Neighbouring rows are from separate reports.

compound | strain or isolate | method | result
COc1ccc2nc(N3CCOCC3)c(/C=C(/C#N)c3nc4ccc(C)cc4[nH]3)cc2c1 | MTCC 3008 | broth dilution | 1000 µg/mL
CCOC(=O)C1=C(N)N(c2nc(-c3ccccc3)cs2)C2=C(C(=O)CCC2)C1c1cc2cc(C)ccc2nc1F | MTCC 3008 | broth dilution | 1000 µg/mL
N#C/C(=C/c1cc2ccccc2nc1N1CCOCC1)c1nc2ccccc2[nH]1 | MTCC 3008 | broth dilution | >1000 µg/mL
C[C@@H]1[C@H](O)[C@@H](C)/C=C/C=C/CC/C=C/C=C/C=C/C=C/C(O[C@H]2O[C@H](C)[C@@H](O)[C@H](N)[C@@H]2O)CC2O[C@](O)(CC(O)C(O)CCC(O)CC(O)CC(O)CC(=O)O[C@H]1C)CC(O)C2C(=O)O | MTCC 3008 | broth dilution | 100 µg/mL
CC1C(N=Nc2ccccc2)SC(=Nc2ccccc2)N1CCN1C(=Nc2ccccc2)SC(N=Nc2ccccc2)C1C | - | broth dilution | 31.25 µg/mL
CCCCCCCCCCCCNC1CCc2ccc(OC)cc2C1 | - | - | >64 µM
COc1ccc(C(=O)/C=C/c2ccc(N(C)C)cc2)cc1OC | ATCC 26934 | - | >50 µg/mL
CCCCCCCCCCCCCCNC1CCc2cccc(O)c2C1 | - | - | >64 µM
N#CC(Cc1cc2ccccc2nc1N1CCOCC1)c1nc2ccccc2[nH]1 | MTCC 3008 | broth dilution | 1000 µg/mL
CCCCCCCCCNC1CCc2cccc(O)c2C1 | - | - | 64 µM
O=C(/C=C/c1ccc([N+](=O)[O-])cc1)c1ccccc1 | ATCC 26934 | - | >50 µg/mL
N#CC1=C(N)N(c2nc(-c3ccccc3)cs2)C2=C(C(=O)CCC2)C1c1cc2cc(Cl)ccc2nc1F | MTCC 3008 | broth dilution | 1000 µg/mL
O=C(CN1CCN(C(c2ccccc2)c2ccc(Cl)cc2)CC1)Cn1cncn1 | ATCC 96918 | broth dilution | 100 µg/mL
O=C(O)c1ccc(/C=C/C(=O)c2ccccc2)cc1 | 3 clinical isolates | - | >32 µg/mL
OC(Cn1cncn1)(Cn1cncn1)c1ccc(F)cc1F | NFI 0159 | - | >128 µg/mL
O=C1/C(=C/c2ccccc2)CN(C(=O)c2ccc(/C=C/C(=O)c3ccc([N+](=O)[O-])cc3)cc2)C/C1=C\c1ccccc1 | 3 clinical isolates | - | >32 µg/mL
ClCCN1CCN(C(c2ccccc2)c2ccc(Cl)cc2)CC1 | ATCC 96918 | broth dilution | 200 µg/mL
CCOC(=O)C1=C(N)N(c2nc(-c3ccccc3O)cs2)C2=C(C(=O)CCC2)C1c1cc2ccccc2nc1F | MTCC 3008 | broth dilution | 500 µg/mL
Cc1ccc2nc(C(C#N)Cc3cc4ccccc4nc3N3CCOCC3)[nH]c2c1 | MTCC 3008 | broth dilution | 500 µg/mL
COc1cccc(/C=C/C(=O)c2ccccc2)c1OC | ATCC 26934 | - | >50 µg/mL
N#CC1=C(N)N(c2nc(-c3ccc(O)cc3)cs2)C2=C(C(=O)CCC2)C1c1cc2ccccc2nc1F | MTCC 3008 | broth dilution | 500 µg/mL
CCCCCCCCNC1CCc2ccc(OC)cc2C1 | - | - | >64 µM
Clc1ccc(C(c2ccccc2)N2CCN(CCn3cncn3)CC2)cc1 | ATCC 96918 | broth dilution | 200 µg/mL
O=C1/C(=C/c2ccccc2)CN(C(=O)/C=C/c2ccc3c(c2)OCO3)C/C1=C\c1ccccc1 | 3 clinical isolates | - | >32 µg/mL
CCOC(=O)C1=C(N)N(c2nc(-c3ccccc3O)cs2)C2=C(C(=O)CCC2)C1c1cc2cc(Cl)ccc2nc1F | MTCC 3008 | broth dilution | 500 µg/mL
COc1ccc(C(=O)CC(c2cc3ccccc3nc2Cl)C(C#N)C#N)cc1OC | ATCC 26934 | - | >50 µg/mL
Cc1ccc2nc(/C(C#N)=C\c3cc4ccccc4nc3N3CCOCC3)[nH]c2c1 | MTCC 3008 | broth dilution | >1000 µg/mL
COc1ccc(/C=C/C(=O)c2ccc(C)cc2)cc1 | ATCC 26934 | - | >50 µg/mL
CC(=O)C1SC(=Nc2ccccc2)N(CCN2C(=Nc3ccccc3)SC(C(C)=O)C2C)C1C | - | broth dilution | 0.49 µg/mL
COc1ccc(/C=C/C(=O)N2C/C(=C\c3ccccc3)C(=O)/C(=C/c3ccccc3)C2)cc1OC | 3 clinical isolates | - | >32 µg/mL
CCCCCCCCCNC1CCc2ccc(OC)cc2C1 | - | - | 64 µM
Cc1ccc(C(=O)/C=C/c2ccc(C(=O)O)cc2)cc1 | 3 clinical isolates | - | >32 µg/mL
COc1ccc(N=NC2SC(=Nc3ccccc3)N(CCN3C(=Nc4ccccc4)SC(N=Nc4ccc(OC)cc4)C3C)C2C)cc1 | - | broth dilution | 1.95 µg/mL
COc1ccc(/C=C/C(=O)N2C/C(=C\c3ccccc3)C(=O)/C(=C/c3ccccc3)C2)cc1 | 3 clinical isolates | - | >32 µg/mL
OC(CCl)CN1CCN(C(c2ccccc2)c2ccc(Cl)cc2)CC1 | ATCC 96918 | broth dilution | 100 µg/mL
C[C@H]1[C@H](O)[C@@H](C)/C=C/C=C/C=C/C=C/C=C/C=C/C=C/[C@H](O[C@@H]2O[C@H](C)[C@@H](O)[C@H](N)[C@@H]2O)C[C@@H]2O[C@](O)(C[C@@H](O)C[C@@H](O)CC[C@H](O)[C@@H](O)C[C@@H](O)CC(=O)O[C@H]1C)C[C@H](O)[C@H]2C(=O)O | NFI 0159 | - | 1 µg/mL
CCCCCCCCOc1ccc(-c2ccc(C(=O)NC3CC(NCCN)CNC(=O)[C@@H]4[C@@H](O)[C@@H](C)CN4C(=O)[C@@H](CO)NC(=O)[C@H]([C@H](O)Cc4ccccc4)NC(=O)[C@@H]4C[C@@H](O)CN4C(=O)[C@H]([C@@H](C)O)NC3=O)cc2)cc1 | 50 isolates | - | 0.25 µg/mL
O=C(/C=C/c1ccc(Cl)cc1Cl)c1ccc(Cl)cc1Cl | ATCC 26934 | - | >50 µg/mL
O=C1/C(=C/c2ccccc2)CN(C(=O)c2ccc(/C=C/C(=O)c3ccc(O)cc3)cc2)C/C1=C\c1ccccc1 | 3 clinical isolates | - | >32 µg/mL

Again, the opening 3 rows:

COc1ccc2nc(N3CCOCC3)c(/C=C(/C#N)c3nc4ccc(C)cc4[nH]3)cc2c1 ; strain or isolate: MTCC 3008 ; method: broth dilution ; result: 1000 µg/mL
CCOC(=O)C1=C(N)N(c2nc(-c3ccccc3)cs2)C2=C(C(=O)CCC2)C1c1cc2cc(C)ccc2nc1F ; strain or isolate: MTCC 3008 ; method: broth dilution ; result: 1000 µg/mL
N#C/C(=C/c1cc2ccccc2nc1N1CCOCC1)c1nc2ccccc2[nH]1 ; strain or isolate: MTCC 3008 ; method: broth dilution ; result: >1000 µg/mL